Reference: ChEMBL document CHEMBL4138316, “Optimization of Isothiazolo[4,3- b]pyridine-Based Inhibitors of Cyclin G Associated Kinase (GAK) with Broad-Spectrum Antiviral Activity” (J Med Chem, 2018)

System: Ebolavirus
Test: Antiviral activity against Ebolavirus infected in human HuH7 cells after 48 hrs by immunofluorescence assay
Type: functional, cell-based
Conditions: Orthoebolavirus, Huh-7, 48 h

COc1cc(-c2cnc3c(N4CCOCC4)snc3c2)ccc1N
EC50: 11.9 µM
